From patent US6863895B2, “Mycobacterial sulfation pathway proteins and methods of use thereof” (priority 2001, dated 2005) come the findings set out here.

Amino acid sequences for entries named in this document (tags omitted). Residues count along the entry.
UniProt P9WNM5, 442-614 limits assumed: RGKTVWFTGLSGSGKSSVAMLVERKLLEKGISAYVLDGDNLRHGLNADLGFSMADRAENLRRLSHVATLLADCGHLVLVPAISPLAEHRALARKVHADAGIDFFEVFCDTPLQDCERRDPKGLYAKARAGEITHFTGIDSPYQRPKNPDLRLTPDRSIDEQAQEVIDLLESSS

Read-outs that look alike come from different tables or passages of the source.

In this assay the target is M. tuberculosis CysC (APS kinase) (Mycobacterium tuberculosis, UniProt P9WNM5). Nature of the assay: Coupled in vitro assay of M. tuberculosis CysC (APS kinase). Particulars: read-out: apparent Km, for APS.

What is called Km is the concentration of substrate that gives half-maximal velocity. With `Nc1ncnc2c1ncn2[C@@H]1O[C@H](COP(=O)(O)OS(=O)(=O)O)[C@@H](O)[C@H]1O` [APS, adenylyl phosphosulfate], the Km by setting is: (in the presence of 75 mM sulfate) 1.7 µM; (saturating ATP (5 mM)) 0.64 µM.
